Source: article PMC4586043, “Antibodies to a conformational epitope on gp41 neutralize HIV-1 by destabilizing the Env spike” (2015)

Target: 3BC315 IgG
Test: ELISA
Settings: parent: est. 0.50; read off a plot

D7324-tagged BG505 SOSIP.664 trimer produced in 293T cells W623A
response: 0.1 OD450
